Results of unrelated studies side by side (data: NIAID ChemDB).

All rows: growth or infection tests; organism: HIV-1; endpoint: EC50

Rows are shuffled and stem from different studies. ECn is the concentration giving n% inhibition of infection, replication or growth. a–b is a range or a potency band. Blank or dashed fields: not listed here.

SMILES,strain or isolate,mutations,cell line,method,setting,value
CCCCCC(=O)N[C@@H]1CCN(c2cc(C)nn3c(-c4ccc(OC)c(OC)c4)c(C)nc23)C1,,,H9,p24,,0.4 µM
CCCCOC(=O)[C@@H](C)NP(=O)(CO[C@H](C)Cn1cnc2c(N)ncnc21)NC[C@H](C)C(=O)OC(C)C,,,MT4-GFP,fluorescence,10% human serum,11.7 µM
COc1ncc(OC)c2c(C(=O)C(=O)N3CCC(=C(c4ccccc4)c4ccc(F)cc4)CC3)c[nH]c12,,,HeLa,luciferase,,<1 µM
Cc1cn([C@H]2C=C[C@@H](CO)O2)c(=O)[nH]c1=O,IIIB,,CEM + CEM TK-,RT activity,,2.355 µM
CC(C)C1=C2[C@H]3CC[C@@H]4[C@@]5(C)CC[C@H](OC(=O)[C@H]6C[C@@H](C(=O)O)C6(C)C)C(C)(C)[C@@H]5CC[C@@]4(C)[C@]3(C)CC[C@@]2(CC(=O)NCC(C)(C)NC(=O)c2cccnc2)CC1=O,92HT599,,MT-2,p24 / ELISA,,<1 µM
COc1cnc(-n2cnc(C)n2)c2[nH]cc(C(=O)C(=O)N3CCC(=C(c4ccccc4)c4cc(F)cc(F)c4)CC3)c12,,,HeLa,luciferase,,<1 µM
CCN1c2ncccc2NC(=O)c2cc(CCOc3ccc(-c4ccc(CC(=O)O)cc4)cc3C)cnc21,IIIB,,C8166,p24,,<0.01 µM
Nc1ncnc2c1ncn2COCCOP(=O)(O)O[C@@H]1C[C@@H](COP(=O)(O)O[C@@H]2C[C@@H](COP(=O)(O)O[C@@H]3C[C@@H](CO)O[C@H]3n3cnc4c(NCc5ccccc5)ncnc43)O[C@H]2n2cnc3c(N)ncnc32)O[C@H]1n1cnc2c(N)ncnc21,,,SupT1 + Sup-T1,RT activity,,<100 µM
CCC(=O)c1ccc(F)c([C@@H]2C[C@@H]2NC(=O)Nc2ccc(C#N)cn2)c1O,LAI,NNRTI-resistant (RT Y188C),TZM-bl,β-galactosidase / luminescence,,0.00021 µM
CCN1c2ncc(CCOc3ccc(-c4ccc(O)c(C(=O)O)c4)cc3C)cc2C(=O)N(C)c2cccnc21,,RT-K103N Y181C,C8166,p24,,>0.05 µM
Cc1cc(OCCCOc2ccc(-c3cccc(C(=O)O)c3)cc2)cnc1CS(=O)c1nc2ccccc2[nH]1,Clinical isolates,,HEK293T,ELISA,,5 µM
CC(C)C1=C2[C@H]3CC[C@@H]4[C@@]5(C)CC[C@H](OC(=O)[C@H]6C[C@@H](C(=O)O)C6(C)C)C(C)(C)[C@@H]5CC[C@@]4(C)[C@]3(C)CC[C@@]2(CC(=O)NCC2(N)CC2)CC1=O,92HT599,,MT-2,p24 / ELISA,,<1 µM
Nc1ncnc2c1ncn2[C@@H]1O[C@H](COP(=O)(O)O[C@@H]2[C@H](O)[C@@H](COP(=O)(O)O[C@@H]3[C@H](O)[C@@H](CO)O[C@H]3n3cnc4c(N)ncnc43)O[C@H]2n2cnc3c(N)ncnc32)[C@@H](O)[C@H]1O,,,SupT1 + Sup-T1,syncytia,,<300 µM
COc1cnc(-n2cncn2)c2[nH]cc(C(=O)C(=O)N3CCC(=C(c4ccccc4)c4nnc(C)o4)CC3)c12,,,HeLa,luciferase,,<1 µM
CC(C)C1=C2[C@H]3CC[C@@H]4[C@@]5(C)CC[C@H](OC(=O)[C@H]6C[C@@H](C(=O)O)C6(C)C)C(C)(C)[C@@H]5CC[C@@]4(C)[C@]3(C)CC[C@@]2(CC(=O)NC(F)(CCCN)CNC(=O)c2ccc(Cl)cc2)CC1=O,92HT599,,MT-2,p24 / ELISA,,<1 µM
COc1ccc2c(c1)[nH]c1cc(OC)c(C(=O)O)cc12,,,1A2,syncytia,,34.2 µM
Cc1cc(COc2ccc(-c3cccc(C#N)c3)cc2)cnc1CS(=O)c1nc2ccccc2[nH]1,Clinical isolates,,HEK293T,ELISA,,1 µM
C=C(C)[C@@H]1CC[C@]2(C(=O)NCCCCCCCCC(=O)N[C@H](CCC(N)=O)C(=O)OC)CC[C@]3(C)[C@H](CC[C@@H]4[C@@]5(C)CC[C@H](OC(=O)CC(C)(C)C(=O)O)C(C)(C)[C@@H]5CC[C@]43C)[C@@H]12,NL4-3,V370delta,,absorbance,,0.324 µM
CC(C)C1=C2[C@H]3CC[C@@H]4[C@@]5(C)CC[C@H](OC(=O)CC(C)(C)C(=O)O)C(C)(C)[C@@H]5CC[C@@]4(C)[C@]3(C)CC[C@@]2([C@@H](O)CN(CCN(C)C)Cc2ccc(Cl)cc2)CC1=O,NL4-3,,CEM-SS + MAGIC-5A,syncytia / visual reading / single cycle,,0.0000028 µM
COC(=O)[C@H](C)NP(=O)(OC[C@@H]1C=C[C@H](n2cc(C)c(=O)[nH]c2=O)O1)Oc1ccc(Br)cc1,IIIB,,CEM + CEM TK-,RT activity,,0.057 µM
CC(C)OC(=O)[C@H](C)CNP(=O)(CO[C@H](C)Cn1cnc2c(N)ncnc21)N[C@H](C)C(=O)OC(C)C,,,MT4-GFP,fluorescence,10% human serum,435 µM
CC(C)C1=C2[C@H]3CC[C@@H]4[C@@]5(C)CC[C@H](OC(=O)[C@H]6C[C@@H](C(=O)O)C6(C)C)C(C)(C)[C@@H]5CC[C@@]4(C)[C@]3(C)CC[C@@]2([C@@H](O)CNCc2ccc(CN3CCS(=O)(=O)CC3)cc2)CC1=O,92HT599,,MT-2,p24 / ELISA,,<1 µM
Cc1cc(COc2ccc(-c3cccc(-c4nn[nH]n4)c3)cc2)cnc1CS(=O)c1nc2ccccc2[nH]1,Clinical isolates,,HEK293T,ELISA,,20 µM
COc1cccc2[nH]cc(C(=O)C(=O)N3CCN(C(=O)c4ccccc4)C[C@H]3C)c12,BRU,,MT-2/CXCR4,virus yield,,0.00326 µM
CC(C)OC(=O)C[C@H](N[P@@](=O)(CO[C@H](C)Cn1cnc2c(N)ncnc21)NC(C)(C)C(=O)OC(C)C)C(C)C,,,MT4-GFP,fluorescence,50% human serum,12 µM
CCN1c2ncc(CCOc3ccc(-c4cccc(C(=O)O)c4)cc3C)cc2C(=O)N(C)c2cccnc21,,RT-K103N Y181C,C8166,p24,,0.01–0.05 µM
COc1ncc(OC)c2c(C(=O)C(=O)N3CCC(=C(c4ccccc4)c4cccc(SC)c4)CC3)c[nH]c12,,,HeLa,luciferase,,<1 µM
Cc1cc(COc2ccc(-c3cccc(C(=O)O)c3)cc2)cnc1CS(=O)c1nc2ccccc2[nH]1,Clinical isolates,,HEK293T,ELISA,,3 µM
Cc1cc(C)cc(Cc2c(I)c(=O)[nH]c(=O)n2COCc2ccccc2)c1,SF33,Y188L,TZM-bl,p24 / ELISA,,0.009 µM
CC(C)OC(=O)CCNP(=O)(CO[C@H](C)Cn1cnc2c(N)ncnc21)N[C@H](C)C(=O)OC(C)C,,,MT4-GFP,fluorescence,50% human serum,393 µM
O=S(=O)(O)c1cc(Cl)cc(Cc2cc(Cl)cc(S(=O)(=O)O)c2O)c1O,,,MOLT-4/HUT-78,syncytia,,>100 µg/mL
Cc1cn([C@H]2C[C@H](N=[N+]=[N-])[C@@H](CO)O2)c(=O)n(Cc2ccoc2)c1=O,LAI,,CEM-C113 + CEM/C113,RT activity,,143 µM
CCCCOC(=O)[C@H](C)NP(=O)(CO[C@H](C)Cn1cnc2c(N)ncnc21)NC[C@H](C)C(=O)OC(C)C,,,MT4-GFP,fluorescence,50% human serum,146 µM
CC(C)C1=C2[C@H]3CC[C@@H]4[C@@]5(C)CC[C@H](OC(=O)[C@H]6C[C@@H](C(=O)O)C6(C)C)C(C)(C)[C@@H]5CC[C@@]4(C)[C@]3(C)CC[C@@]2([C@@H](O)CNCC(F)(CCN)NC(=O)c2ccc(Cl)cc2)CC1=O,92HT599,,MT-2,p24 / ELISA,,<1 µM
Cc1cc(OCc2ccc(-c3cccc(C#N)c3)cc2)cnc1CS(=O)c1nc2ccccc2[nH]1,Clinical isolates,,HEK293T,ELISA,,2 µM
COc1ccc(-c2c(C)nc3c(N4CC[C@@H](N5CCOCC5)C4)cc(C)nn23)cc1OC,,,H9,p24,,0.7 µM
CCN1c2ncc(CCOc3ccc(-c4cc(C(=O)O)on4)cc3C)cc2C(=O)N(C)c2cccnc21,,RT-K103N Y181C,C8166,p24,,>0.05 µM
CC[C@]1(CO)O[C@@H](n2cnc3c(N)ncnc32)C[C@@H]1O,,M184V (delta)Env,HOS,luciferase,,>10 µM
CCN1c2ncc(CCOc3ccc(-c4ccc(C(=O)O)cc4)cc3C)cc2C(=O)N(C)c2cccnc21,IIIB,,C8166,p24,,<0.01 µM
CC(C)OC(=O)[C@H](C)NP(=O)(CO[C@H](C)Cn1cnc2c(N)ncnc21)NC[C@H](C)C(=O)OC(C)C,,,MT4-GFP,fluorescence,10% human serum,20 µM
CC(C)C1=C2[C@H]3CC[C@@H]4[C@@]5(C)CC[C@H](OC(=O)[C@H]6C[C@@H](C(=O)O)C6(C)C)C(C)(C)[C@@H]5CC[C@@]4(C)[C@]3(C)CC[C@@]2(CCN(CCN(C)C)C(=O)c2ccncn2)CC1=O,92HT599,,MT-2,p24 / ELISA,,<1 µM
COc1cnc(-n2cnc(C)n2)c2[nH]cc(C(=O)C(=O)N3CCN(C(=O)c4ccccc4)CC3)c12,NL4-3,M426R,U-87,luciferase,,0.0011 µM
CC(C)C1=C2[C@H]3CC[C@@H]4[C@@]5(C)CC[C@H](OC(=O)[C@H]6C[C@@H](C(=O)O)C6(C)C)C(C)(C)[C@@H]5CC[C@@]4(C)[C@]3(C)CC[C@@]2(CC(=O)N(CCN(C)C)Cc2cncnc2)CC1=O,92HT599,,MT-2,p24 / ELISA,,<1 µM
COc1ccc(-c2c(C)nc3c(N4CC[C@@H](NC(=O)Nc5ccccc5)C4)cc(C)nn23)cc1OC,,,H9,p24,,0.2 µM
COc1ncc(OC)c2c(C(=O)C(=O)N3CCC(=C(C#C[Si](C)(C)C)c4ccccc4)CC3)c[nH]c12,,,HeLa,luciferase,,<1 µM
Cc1nc(C)c(C(=O)NC(C)(C)CNCC[C@@]23CC[C@]4(C)[C@H](CC[C@@H]5[C@@]6(C)CC[C@H](OC(=O)[C@H]7C[C@@H](C(=O)O)C7(C)C)C(C)(C)[C@@H]6CC[C@]54C)C2=C(C(C)C)C(=O)C3)s1,92HT599,,MT-2,p24 / ELISA,,<1 µM
Nc1ncnc2c1ncn2COCCOP(=O)([O-])O[C@@H]1[C@H](O)[C@@H](COP(=O)([O-])O[C@@H]2[C@H](O)[C@@H](CO)O[C@H]2n2cnc3c(N)ncnc32)O[C@H]1n1cnc2c(N)ncnc21,,,SupT1 + Sup-T1,syncytia,,<300 µM
CN1N=C(N)c2cn([C@@H]3O[C@H](COP(=O)(O)O)[C@@H](O)[C@H]3O)c3ncnc1c23,KELL,,CEM + CEM-SS,cytopathic effect / XTT,,>2.8 µM
CC(C)C1=C2[C@H]3CC[C@@H]4[C@@]5(C)CC[C@H](OC(=O)[C@H]6C[C@@H](C(=O)O)C6(C)C)C(C)(C)[C@@H]5CC[C@@]4(C)[C@]3(C)CC[C@@]2(CCNCC(C)(C)NC(=O)c2ccc(Cl)cc2O[C@@H]2CCOC2)CC1=O,92HT599,,MT-2,p24 / ELISA,,<1 µM
COc1cnc(-n2cnc(C)n2)c2[nH]cc(C(=O)C(=O)N3CCC(=C(c4ccccc4)c4cn(C)cn4)CC3)c12,,,HeLa,luciferase,,<1 µM
COc1ccc(-c2c(C)nc3c(N4CC[C@@H](NC(C)=O)C4)cc(C)nn23)cn1,,,H9,p24,,0.5 µM
CCN1c2ncc(CCOc3ccc(-c4cccc(CC(=O)O)c4)cc3)cc2C(=O)N(C)c2cccnc21,,RT-K103N Y181C,C8166,p24,,0.01–0.05 µM
CC(=O)N1CCC(C(=O)N(CCCN2CCC(Cc3ccc(C(N)=O)cc3)CC2)c2ccc(C)c(Cl)c2)CC1,89BZ167,,CEMx174 5.25 M7,p24 / ELISA,,>300 µM
COC(=O)c1cccc(-c2ccc(OCc3cnc(CS(=O)c4nc5ccccc5[nH]4)c(C)c3)cc2)c1,Clinical isolates,,HEK293T,ELISA,,6.5 µM
CC(C)COC(=O)[C@@H](C)NP(=O)(CO[C@H](C)Cn1cnc2c(N)ncnc21)NC[C@H](C)C(=O)OC(C)C,,,MT4-GFP,fluorescence,50% human serum,51.6 µM

A second listing of 4 rows from above:

SMILES | strain or isolate | mutations | cell line | method | setting | value
CC(C)C1=C2[C@H]3CC[C@@H]4[C@@]5(C)CC[C@H](OC(=O)[C@H]6C[C@@H](C(=O)O)C6(C)C)C(C)(C)[C@@H]5CC[C@@]4(C)[C@]3(C)CC[C@@]2(CC(=O)NC(F)(CCCN)CNC(=O)c2ccc(Cl)cc2)CC1=O | 92HT599 |  | MT-2 | p24 / ELISA |  | <1 µM
Cc1cc(OCCCOc2ccc(-c3cccc(C(=O)O)c3)cc2)cnc1CS(=O)c1nc2ccccc2[nH]1 | Clinical isolates |  | HEK293T | ELISA |  | 5 µM
CN1N=C(N)c2cn([C@@H]3O[C@H](COP(=O)(O)O)[C@@H](O)[C@H]3O)c3ncnc1c23 | KELL |  | CEM + CEM-SS | cytopathic effect / XTT |  | >2.8 µM
COc1ccc2c(c1)[nH]c1cc(OC)c(C(=O)O)cc12 |  |  | 1A2 | syncytia |  | 34.2 µM